According to article PMC8286831, “Identifying SARS-CoV-2 antiviral compounds by screening for small molecule inhibitors of nsp13 helicase” (Biochemical Journal, 2021):
Like-named read-outs stand apart in the source and are kept apart here.

Target: SARS-CoV-2 nsp13 helicase (Severe acute respiratory syndrome coronavirus 2, UniProt P0DTD1)
Type: biochemical

## PDK1/Akt/Flt Dual Pathway Inhibitor
read-out: IC50 + 0.02% Tween-20
  IC50: 900 nM
read-out: IC50 No detergent
  IC50: 1100 nM
